Source: patent US20090162366A1 (KIRIN PHARMA, published 2009)

What was measured:
[1] = biological target: T1, M2 expressed on MDCK cells infected with influenza A/HK/8/68 (influenza A virus A/HK/8/68); assay: cell ELISA on infected MDCK cells
T1 construct: whole, on cells

[2] = biological target: M2DLTGS (influenza A virus, A/Hong Kong/485/97 …); assay: peptide ELISA, Ab 10 µg/ml (+ >50%, W 10~50% of O.D. on M2)

B1: C40G4 (antibody, V domains shown)
VH: QLQLQESGPGLVKPSETLSLTCTVSGGSISSSFYYCGWIRQPPGKGLEWIGSIYYRGSTYYNPSLKSRVTISVDTSKNQFSLKLSSVTAADTAVYYCARRVTMVRGVKGDYFDYWGQGTLVTVSS
VL: DIQMTQSPSSLSASVGDRVTITCRASQGISSWLAWYQQKPEKVPKSLIYAASSLQSGVPSRFSGSGSGTDFTLTISSLQPEDFATYYCQQYNYYPLTFGGGTKVEIKR
EC50 [1]: 0.841 µg/mL

B2: N547 (antibody, V domains shown)
VH: not shown
VL: QSVLTQPPSMSAAPGQKVTISCSGSSSNIGNNYISWYQQLPGTAPKVLIYDNNKRPSGIPDRFSGSKSGTSATLGITGLQTGDEADYYCGSWDSSLSAGVFGTGTKVTVLG
EC50 [1]: 0.466 µg/mL

B3: L66 (antibody, V domains shown)
VH: EVQLVESGGGVVRPGGSLRLSCAASGFTFDDYGMSWVRQAPGKGLEWVSGINWNGGSTGYADSVKGRFTISRDNAKNSLYLQMNSLRAEDTALYYCARDRVTMVRGVIMDYYGMDVWGQGTTVTVSS
VL: QTVVTQEPSLTVSPRGTVTLTCSSSTGAVTSGYYPGWFQLKPGQAPMSLIYSARKKHSWTPARFSGSLLGGKAALTLSGVQPEDEAEYYCLLYYGGAYVFGTGTKVTVLG
EC50 [1]: 0.229 µg/mL

B4: C40G1 (antibody, V domains shown)
VH: B1 VH
VL: B1 VL
EC50 [1]: 0.0971 µg/mL
binding result [2]: binds
